# Measured values: PubChem BioAssay AID743201 (The Scripps Research Institute Molecular Screening Center, 2013)
# This is a selection; strong and weak results do not stand in their true shares. The source made the active and inactive calls. Rule as the data show it: active = inhibition above about 9.5%; inactive = the rest.
# Assay: cytotoxicity in LD9 cells, cytotoxicity control for cell surface PrPc inhibitor project, cell-based, luminescence, high throughput (AID 743201)
# Conditions: luminescence viability, at 13.8 µM, stronger effect = higher value
row,SMILES,inhibition
1,Cc1c2c(nc3ccccc13)SC(C(Cl)Cl)C2 (configuration not stated),inactive: -7.69%
2,Cc1ccc2nc3c(c(C)c2c1)CC(C(Cl)Cl)S3 (configuration not stated),inactive: -0.73%
